## Sequence variants of PSTVd loop 6 after infection

PSTVd intermediate strain, loop 6: wild type UGACCGCGAG, pool pattern UNNNCGNNNG; upper and lower strand joined, each 5' to 3', the first 5 letters being the upper strand, closing pairs included.

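A pool of all variants was put on leaves of three Nicotiana benthamiana plants. Progeny were sequenced from the inoculated region (day 5), the margin of the inoculated leaf (day 10) and systemic leaves (day 12).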

Values are reads per thousand in the sample; higher means more abundant, 0 means not found.
Each value is the mean of three plants.
"Pool" is the share in the plasmid pool used as inoculum, on the same scale.
The inoculated region was read from the minus strand, the other sites from the plus strand.
With 36,220-57,551 reads a sample, very low values are single reads.
For reference, wild type rose from 20.7 per thousand in the pool to 195, 198, 203 (inoculated region), 629, 591, 734 (leaf margin) and 942, 870, 868 (systemic leaves).
Sequences that differ at fixed positions probably stem from PCR or sequencing errors, and defective variants can be carried along by functional ones.

sequence	pool	inoculated region	leaf margin	systemic leaves
UUCUCGACGG	0.353	0.0963	0.00773	0
UUCACGGGCG	0.183	0.0708	0	0
UUAUCGUUCG	0.288	0.0884	0.0184	0
CGACCGCUAG	0.0261	3.67	1.07	0.524
UUCUCGCGUG	0.261	0.0942	0.00920	0
UUCCCGUUUG	0.301	0.131	0	0.00684
UAAUCGAGAG	0.170	0.124	0.00773	0
UCCUCGCUAG	0.0915	0.0654	0	0
UCAUCGCCGG	0.131	0.102	0	0
UAGACUGUCG	0.0131	0	0	0
UACACGUUGG	0.222	0.0717	0.00841	0
UUUACGAGGG	0.170	0.0951	0	0
UCGUCGUGGG	0.222	0.0831	0	0
UUGGCGCCGG	0.301	0.0717	0.00773	0
UCACCGCAGG	0.157	0.0773	0.0247	0
UAGUCGUAUG	0.301	0.0951	0.0736	0
UCGUCGCGGG	0.288	0.154	0	0
UACUCGCCUG	0.144	0.125	0.0161	0
UUAUCGCGAG	0.196	0.285	0.206	0.102
UUGGCGCCUG	0.523	0.112	0.00920	0
UAAUCGGUCG	0.575	0.566	0.0922	0
UCUGCGUUUG	0.275	0.0958	0.00920	0
UCACCGACUG	0.275	0.0766	0.0155	0
UUUUCGUUUG	0.484	0.107	0.00773	0
UUACCGACCG	0.209	0.173	0.00773	0
UAUGCGGAGG	0.183	0.0894	0.00920	0
UUAUCGUGGG	0.196	0.0890	0	0
UGGACGGCAG	0.118	0.0784	0.00773	0.0457
UGGCCGUCAG	0.288	0.191	0.0155	0
UUAACGACAG	0.235	0.583	0.0606	0
UCUACGCACG	0.170	0.0777	0.0353	0
UUCUCGACAG	0.275	0.0945	0.00920	0
UUAGCGCUUG	0.261	0.0893	0	0
UUGUCGGGAG	0.301	0.655	0.138	0
UUAACGCGCG	0.183	0.666	0.0822	0
UCUGCGGACG	0.275	0.0894	0	0
UCACCGCUAG	0.118	0.600	0.126	0
UGCGCGUGAG	0.183	0.113	0	0
UUCCCGGAAG	0.144	0.0836	0.0155	0
UACACGCUCG	0.196	0.0889	0	0
UAGACGCAGG	0.275	0.106	0.0169	0
UAAGCGCGUG	0.183	0.109	0.0252	0
UACACGCGUG	0.118	0.0898	0	0
UGGGCGAUCG	0.288	0.0896	0	0
UUUGCGAGAG	0.222	0.119	0.00773	0
UAUCCGGGAG	0.157	0.115	0.0169	0
UGCUCGAUAG	0.288	0.130	0.0696	0
UUUCCGGGGG	0.131	0.107	0.0169	0
GGACCGUAUG	0.0261	0.0294	0.0184	0.00673
UGCCCGGUAG	0.248	0.120	0.00773	0
UGUGCGAACG	0.248	0.0717	0.0247	0
UAGCCGACCG	0.248	0.112	0.00920	0
UGUUCGUAGG	0.327	0.0656	0.0169	0
UUGACGGAGG	0.170	0.0654	0	0
UGUACGGGAG	0.222	0.876	0.182	0.0338
UGACCGCGCG	0.144	0.233	0.330	0.221
UCCACUCGAG	0.0131	0	0.00920	0
UUCGCUUAUG	0.0131	0	0	0
UGAGCUGUGG	0.0131	0	0	0
UUGCCGCACG	0.288	0.0658	0.0232	0
UGUGCGCGUG	0.144	0.130	0	0.00684
UAUGCGGGCG	0.0915	0.0591	0	0

The last 3 entries again:

{"sequence": "UUGCCGCACG", "pool": "0.288", "inoculated region": 0.0658, "leaf margin": 0.0232, "systemic leaves": 0}
{"sequence": "UGUGCGCGUG", "pool": "0.144", "inoculated region": 0.130, "leaf margin": 0, "systemic leaves": 0.00684}
{"sequence": "UAUGCGGGCG", "pool": "0.0915", "inoculated region": 0.0591, "leaf margin": 0, "systemic leaves": 0}

From the data files of Wu et al. 2024, doi:10.1371/journal.ppat.1012142.